One assay concerns Trypanosoma brucei. As to the kind of experiment: Trypanocidal activity against of Trypanosoma brucei bloodstream trypomastigote forms assessed as inhibition of parasite growth.
The next assay has as its system Leishmania major. The assay is described as follows: Trypanocidal activity against Leishmania major promastigote forms infected in sandfly gut assessed as inhibition of parasite growth.

Bounds are passed on as bounds.

As to `O=C(OCc1ccc([N+](=O)[O-])cc1)N(CCCl)CCCl`, the figures for the IC50 with Trypanosoma brucei and in the assay with Leishmania major were over 10 µM and 16.2 µM, respectively.

What is called IC50 is the concentration at which inhibition is half-maximal.

Source of the values: ChEMBL document CHEMBL2157983 (Bioorg Med Chem Lett, 2011).
